PubChem BioAssay AID1259414 – Drosophila RNAi Screening Center – 2018
The deposit covers about 24,000 reagents; this is a random part of those that have a named target and a result. Of all reagents, about 1,210 (5%) were called active. 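Inactive calls also include excluded dsRNAs with several or no targets, genes unexpressed in JW18, and well A1, regardless of score.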 Reagents against one gene are numbered here. Reagent sequences are not shown.

Assay: 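Host factors increasing or decreasing Wolbachia levels in cultured fly cells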 (primary screen)
System: Drosophila JW18 cells infected with Wolbachia
Reagent: long dsRNA against Drosophila genes, 0.25 µg dsRNA per well of a 384-well plate
Duration: 5 days
Conditions: cells persistently infected with Wolbachia before knock-down; no added drug
Detection: 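Imaged fluorescence in situ signal for Wolbachia 23S rRNA per DAPI-counted host cell, given as a robust z-score within each plate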
Scale: Wolbachia per cell robust z: higher = more Wolbachia per host cell than the plate typical
Rule for the call: 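Hit when robust z is 1.5 or more, or -1.5 or less, in at least two of three replicates; excludes dsRNAs with several or no targets, genes not expressed in JW18 and well A1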

Smvt
- Wolbachia per cell robust z, rep 1: -2.17
- Wolbachia per cell robust z, rep 2: -1.57
- Wolbachia per cell robust z, rep 3: 0.35
- Outcome: inactive

galene #1
- Wolbachia per cell robust z, rep 1: 0.67
- Wolbachia per cell robust z, rep 2: 0.816
- Wolbachia per cell robust z, rep 3: 0.271
- Outcome: inactive

galene #2
- Wolbachia per cell robust z, rep 1: -0.315
- Wolbachia per cell robust z, rep 2: -3.45
- Wolbachia per cell robust z, rep 3: -3.41
- Outcome: active

CG16863
- Wolbachia per cell robust z, rep 1: 0.37
- Wolbachia per cell robust z, rep 2: -2.05
- Wolbachia per cell robust z, rep 3: 1.03
- Outcome: inactive

GstE8
- Wolbachia per cell robust z, rep 1: -1.35
- Wolbachia per cell robust z, rep 2: -0.984
- Wolbachia per cell robust z, rep 3: -1.14
- Outcome: inactive

PMCA #1
- Wolbachia per cell robust z, rep 1: -2.81
- Wolbachia per cell robust z, rep 2: 1.66
- Wolbachia per cell robust z, rep 3: 0.791
- Outcome: inactive

PMCA #2
- Wolbachia per cell robust z, rep 1: -1.43
- Wolbachia per cell robust z, rep 2: 1.76
- Wolbachia per cell robust z, rep 3: 3.45
- Outcome: active

PMCA #3
- Wolbachia per cell robust z, rep 1: 0.366
- Wolbachia per cell robust z, rep 2: 2.29
- Wolbachia per cell robust z, rep 3: -0.495
- Outcome: inactive

CG13578
- Wolbachia per cell robust z, rep 1: -1.66
- Wolbachia per cell robust z, rep 2: -1.05
- Wolbachia per cell robust z, rep 3: -2.82
- Outcome: inactive

CG3808
- Wolbachia per cell robust z, rep 1: -1.07
- Wolbachia per cell robust z, rep 2: 0.741
- Wolbachia per cell robust z, rep 3: 1.09
- Outcome: inactive

trus #1
- Wolbachia per cell robust z, rep 1: 0.535
- Wolbachia per cell robust z, rep 2: 0.0451
- Wolbachia per cell robust z, rep 3: 0.144
- Outcome: inactive

trus #2
- Wolbachia per cell robust z, rep 1: -1.65
- Wolbachia per cell robust z, rep 2: -6.14
- Wolbachia per cell robust z, rep 3: 0.439
- Outcome: active

Vha55 #1
- Wolbachia per cell robust z, rep 1: -0.414
- Wolbachia per cell robust z, rep 2: -0.556
- Wolbachia per cell robust z, rep 3: 0.348
- Outcome: inactive

Vha55 #2
- Wolbachia per cell robust z, rep 1: -0.341
- Wolbachia per cell robust z, rep 2: -1.04
- Wolbachia per cell robust z, rep 3: -2.58
- Outcome: inactive

Clic
- Wolbachia per cell robust z, rep 1: -1.64
- Wolbachia per cell robust z, rep 2: -1.04
- Wolbachia per cell robust z, rep 3: -10.4
- Outcome: active

The list goes on, starting with the last 2 of the part before.
Vha55 #2
- Wolbachia per cell robust z, rep 1: -0.341
- Wolbachia per cell robust z, rep 2: -1.04
- Wolbachia per cell robust z, rep 3: -2.58
- Outcome: inactive

Clic
- Wolbachia per cell robust z, rep 1: -1.64
- Wolbachia per cell robust z, rep 2: -1.04
- Wolbachia per cell robust z, rep 3: -10.4
- Outcome: active

CG34355 #1
- Wolbachia per cell robust z, rep 1: -0.835
- Wolbachia per cell robust z, rep 2: 0.0275
- Wolbachia per cell robust z, rep 3: 0.747
- Outcome: inactive

CG34355 #2
- Wolbachia per cell robust z, rep 1: -0.0704
- Wolbachia per cell robust z, rep 2: 0.0834
- Wolbachia per cell robust z, rep 3: -0.419
- Outcome: inactive

CG34355 #3
- Wolbachia per cell robust z, rep 1: 0.108
- Wolbachia per cell robust z, rep 2: -1.77
- Wolbachia per cell robust z, rep 3: 0.504
- Outcome: inactive

CG34355 #4
- Wolbachia per cell robust z, rep 1: 0.359
- Wolbachia per cell robust z, rep 2: -0.83
- Wolbachia per cell robust z, rep 3: 0.689
- Outcome: inactive

nebu #1
- Wolbachia per cell robust z, rep 1: -8.11
- Wolbachia per cell robust z, rep 2: 0.154
- Wolbachia per cell robust z, rep 3: 0.211
- Outcome: inactive

nebu #2
- Wolbachia per cell robust z, rep 1: 0.821
- Wolbachia per cell robust z, rep 2: -0.61
- Wolbachia per cell robust z, rep 3: 0.398
- Outcome: inactive

vito #1
- Wolbachia per cell robust z, rep 1: -1.47
- Wolbachia per cell robust z, rep 2: 0.825
- Wolbachia per cell robust z, rep 3: -0.639
- Outcome: inactive

vito #2
- Wolbachia per cell robust z, rep 1: -2.85
- Wolbachia per cell robust z, rep 2: 2.26
- Wolbachia per cell robust z, rep 3: 2.54
- Outcome: active

CG11961
- Wolbachia per cell robust z, rep 1: 0.292
- Wolbachia per cell robust z, rep 2: -0.923
- Wolbachia per cell robust z, rep 3: 0.443
- Outcome: inactive
